Target: Human CCR5 receptor (Homo sapiens, UniProt P51681)
Assay: Human CCR5 receptor-ligand binding assay (125I RANTES displacement)
Conditions: read-out: Binding IC50 (μM) RANTES; 0.1 nM 125I RANTES, CHO-Gα16-hCCR5 cells, RT 2 h; tested form: trifluoroacetate
Source text: Human CCR5 receptor (Genebank ID: 29169292) was cloned into mammalian expression vector, pTarget (Promega). The construct was transfected into CHO-Gα16 cells by using Fugene Reagent (Roche). Clones were selected under antibiotic pressure (G418 and Hygromycin) and sorted 4 times with a fluorescence activates cell sorter and a monoclonal antibody specific for CCR5 receptor (BD Biosciences Pharmigen, Mab 2D7, Cat. No. 555993). The clone with highest expression (100,000 copies per cell) was chosen for the binding assays.
Adherent cells in […] tissue culture flask (˜90% confluent) were harvested using 1 mM EDTA in PBS (phosphate-buffered saline) without Ca^2+ and Mg^2+. Cells were washed twice with PBS containing no Ca^2+ and Mg^2+. CHO-Gα16-hCCR5 cells were then resuspended (1×10^6/ml) in ice cold binding buffer (50 mM HEPES, 1 mM CaCl2, 5 mM MgCl2, 0.5% BSA, 0.05% NaN3, pH 7.24), pH 7.4), supplemented with freshly made 0.5% BSA and 0.05% NaN3.
Eighty μl CHO-Gα16-hCCR5 (1×10^6/ml) cells were added to 96 well plates. All dilutions were made in binding buffer (50 mM HEPES, 1 mM CaCl2, 5 mM MgCl2, 0.5% BSA, 0.05% NaN3, pH 7.24).
The plates were incubated on a cell shaker at RT for 2 h with a final concentration of 0.1 nM ^125I RANTES or ^125I MIP-1α or ^125I MIP-1β. The compound dilutions were made in PBS, 1% BSA. Total reaction volume was 100 μl per well. The test compounds were added to the cells prior to the addition of radioligand.
After incubation, the cells were harvested onto GF/C filter plates using Packard cell harvester. Filters were pretreated with 0.3% PEI/0.2% BSA for 30 min. The filter plate was washed rapidly 5 times with 25 mM HEPES, 500 mM NaCl, 1 mM CaCl2 and 5 mM MgCl2 adjusted to pH 7.1. Plates were dried in oven (70° C.) for 20 min, added with 40 μl scintillation fluid and sealed with Packard TopSeal-A. Packard Top Count was used to measure of the radioactivity for 1 min per well.
Total binding was determined with control wells added with radioisotope and buffer and the non-specific binding was determined using an excess cold RANTES to some of the control wells. Specific binding was determined by subtracting the non-specific form total binding. Results are expressed as the percentage of specific ^125I RANTES binding. IC50 values were determined using varying concentrations of the test ligand in triplicates and the data was analyzed using GraphPad Prism (GraphPad, San Diego, Calif.).

The chains behind the UniProt entries cited, without tags or fusion partners.
UniProt P51681, whole entry: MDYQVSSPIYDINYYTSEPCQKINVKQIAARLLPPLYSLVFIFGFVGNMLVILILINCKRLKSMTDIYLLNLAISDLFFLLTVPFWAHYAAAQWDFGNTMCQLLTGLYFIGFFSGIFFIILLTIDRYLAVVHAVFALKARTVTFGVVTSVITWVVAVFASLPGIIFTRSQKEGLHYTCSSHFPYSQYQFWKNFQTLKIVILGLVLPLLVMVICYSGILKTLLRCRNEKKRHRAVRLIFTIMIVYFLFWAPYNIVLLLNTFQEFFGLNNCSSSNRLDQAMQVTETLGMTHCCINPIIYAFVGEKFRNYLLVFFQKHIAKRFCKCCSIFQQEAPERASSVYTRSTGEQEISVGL

Row | Structure (SMILES) | IC50
1 | Cc1ccc(C(=O)N[C@@H](CCN2CC3CN(C(=O)c4c(C)cccc4C)CC3C2)c2ccccc2)s1 (some centres unmarked) | 0.0028 µM
2 | Cc1ccc(N(CCCN2CC3CN(C(=O)c4c(Cl)cc(S(C)(=O)=O)cc4Cl)CC3C2)C(=O)C2CCC(F)(F)CC2)cc1Cl (centres unmarked) | 0.0028 µM
3 | Cc1ccc(N(CCCN2CC3CN(C(=O)c4c(C)cc(=O)oc4C)CC3C2)C(=O)C2CCC(F)(F)CC2)cc1Cl (centres unmarked) | 0.0029 µM
4 | O=C(N[C@@H](CCN1CC2CN(C(=O)c3cccnc3)CC2C1)c1ccccc1)C1CCCC1 (some centres unmarked) | 0.0191 µM
5 | Cc1ccc(N(CCCN2CC3CN(C(=O)c4c(C)ccnc4C)CC3C2)C(=O)Nc2cccc(Cl)c2)cc1Cl (centres unmarked) | 0.0022 µM
6 | Cc1cc(Cl)c(C(=O)N2CC3CN(CC[C@H](NC(=O)C4CCCC4)c4ccccc4)CC3C2)c(Cl)c1 (some centres unmarked) | 0.0019 µM
7 | Cc1cccc(C)c1C(=O)N1CC2CN(CC[C@H](NC(=O)C3CCCCC3)c3ccccc3)CC2C1 (some centres unmarked) | 0.0032 µM
8 | Cc1cccc(C)c1C(=O)N1CC2CN(CC[C@H](NC(=O)CC3CCCC3)c3ccccc3)CC2C1 (some centres unmarked) | 0.0037 µM
